Reference: PubChem BioAssay AID1259414 (Drosophila RNAi Screening Center, 2018)
In all, the deposit lists about 24,000 reagents; shown is a random part of those with a known target gene and a result. Over the whole deposit, about 1,210 (5%) are marked active. 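Inactive calls also include excluded dsRNAs with several or no targets, genes unexpressed in JW18, and well A1, regardless of score.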 Names joined by + are all predicted targets of the reagent. Reagent sequences are not shown.

Assay: 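Host factors increasing or decreasing Wolbachia levels in cultured fly cells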 (primary screen)
System: Drosophila JW18 cells infected with Wolbachia
Reagents: long dsRNA against Drosophila genes, 0.25 µg dsRNA per well of a 384-well plate
Duration: 5 days
Challenge: cells persistently infected with Wolbachia before knock-down; no added drug
Detection: 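Automated imaging of bacterial rRNA staining divided by host cell count, reported as plate-normalised robust z-score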
Reading the numbers: Wolbachia per cell robust z: higher = more Wolbachia per host cell than the plate typical
Rule for the call: 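Active if absolute robust z reaches 1.5 in two or more of three replicates, leaving out multi- or no-target dsRNAs, genes unexpressed in JW18 and A1 wells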

The opening 6 entries, to show the layout:
no.	gene	amplicon	Wolbachia per cell robust z, rep 1	Wolbachia per cell robust z, rep 2	Wolbachia per cell robust z, rep 3	Outcome
1	brm	DRSC11330	1.65	1.83	0.529	active
2	brm	DRSC26226	-0.552	-2.84	0.316	inactive
3	Sfp87B	DRSC40636	-0.024	0.927	-0.505	inactive
4	CG4440	DRSC02747	-0.225	-0.64	-0.634	inactive
5	CG4440	DRSC28042	0.646	-1.79	-2.1	inactive
6	Drsl3	DRSC22630	0.65	-0.617	0.183	inactive

Main list, from the first entry:
no.	gene	amplicon	Wolbachia per cell robust z, rep 1	Wolbachia per cell robust z, rep 2	Wolbachia per cell robust z, rep 3	Outcome
1	brm	DRSC11330	1.65	1.83	0.529	active
2	brm	DRSC26226	-0.552	-2.84	0.316	inactive
3	Sfp87B	DRSC40636	-0.024	0.927	-0.505	inactive
4	CG4440	DRSC02747	-0.225	-0.64	-0.634	inactive
5	CG4440	DRSC28042	0.646	-1.79	-2.1	inactive
6	Drsl3	DRSC22630	0.65	-0.617	0.183	inactive
7	Drsl3	DRSC29261	0.0596	-1.08	0.417	inactive
8	CG9933	DRSC03276	0.164	0.254	0.42	inactive
9	CG9933	DRSC29443	-1.98	-0.171	-0.85	inactive
10	CG13615	DRSC14618	-0.682	-1.92	0.872	inactive
11	CG13615	DRSC24018	-7.27	-0.908	0.646	inactive
12	CG10527	DRSC04078	-0.329	-0.355	-5.07	inactive
13	CG10527	DRSC27160	0.479	0.944	1.52	inactive
14	CG31200	DRSC15285	0.000772	0.349	0.417	inactive
15	CG33965	DRSC37791	-0.195	-1.49	0.686	inactive
16	SCCRO4	DRSC10671	0.55	-0.592	-0.846	inactive
17	CBP	DRSC17746	-0.649	0.296	0.435	inactive
18	kz	DRSC18786	0.463	-0.816	-0.226	inactive
19	CG14971	DRSC08430	-1.17	0.235	-0.616	inactive
20	CG43317	DRSC15000	1.02	0.585	-0.093	inactive
21	CG10918	DRSC20472	0.49	0.229	0.622	inactive
22	CG10918	DRSC24162	-2.05	0.33	-4.35	inactive
23	pon	DRSC18823	-0.36	-0.825	-4.64	inactive
24	Lcp1Psi	DRSC05105	1.15	-5.65	2.05	inactive
25	Lcp1Psi	DRSC28465	0.0715	0.866	0.196	inactive
26	Pex5	DRSC18552	0.384	-0.0845	-0.0805	inactive
27	Pex5	DRSC26136	0.342	-0.572	0.882	inactive
28	Cyp9b2	DRSC07390	-0.844	0.368	-4.89	inactive
29	Cyp9b2	DRSC24835	1.15	-0.1	-0.0211	inactive
30	CG11899	DRSC16656	-0.723	-1.48	-0.155	inactive
31	CG9525	DRSC03249	-0.221	0.676	1.68	inactive
32	Atg4b	DRSC15988	-0.234	-0.664	-1.11	inactive
33	Atg4b	DRSC25480	0.592	-0.36	-0.843	inactive
34	CG4025	DRSC18523	-1.63	-0.672	-0.611	inactive
35	lncRNA:CR32553	DRSC19229	-0.0386	-5	-1.22	inactive
36	CG5002	DRSC06911	0.0622	0.122	-0.681	inactive
37	Nmda1	DRSC07479	-0.519	-1.4	0.166	inactive
38	Nmda1	DRSC26357	0.701	-0.197	1.45	inactive
39	CG1575	DRSC18069	-0.717	0.0123	1.5	inactive
40	CG1575	DRSC27030	-2.62	-2	0.246	active
41	Or85c	DRSC16766	0.236	1.35	1.34	inactive
42	CG32228	DRSC22296	-0.167	-1.53	-1.25	inactive
43	CG32488	DRSC08549	-1.82	0.207	0.606	inactive
44	CG32488	DRSC21537	-1.24	0.351	-0.262	inactive
45	Gagr	DRSC10441	-0.311	-0.0108	-0.107	inactive
46	CG42688	DRSC41405	0.948	0.739	-0.312	inactive
47	Der-2	DRSC15021	0.351	0.786	-0.892	inactive
48	CG9541	DRSC03257	-1.08	-0.012	-1.59	inactive
49	CG9541	DRSC41587	-1.03	-1.78	0.623	inactive
50	woc	DRSC15928	0.152	0.265	1.78	inactive
51	CG5793 + Obp93a	DRSC15220	-0.651	-0.266	0.235	inactive
52	sle	DRSC14557	0.114	0.28	0.0125	inactive
53	CG32037	DRSC10363	1.36	0.659	-0.0479	inactive
54	CG33268	DRSC10143	-1.9	-0.764	0.127	inactive
55	CG17378	DRSC02616	-5.19	-0.244	-0.554	inactive
56	Grl40a	DRSC38905	0.015	0.424	0.081	inactive
57	Prosalpha4T1	DRSC16800	0.734	-0.465	0.121	inactive
58	Prosalpha4T1	DRSC28895	0.169	-0.37	1.35	inactive
59	CG2972	DRSC18250	2.2	-0.546	-1.61	inactive
60	CG2972	DRSC30013	0.338	-0.154	-1.36	inactive
61	CG34227	DRSC06788	0.925	0.00262	-0.0947	inactive
62	CG34227	DRSC07034	-1.21	-1.86	-0.373	inactive
63	Act5C	DRSC17723	1.83	3.1	2.33	active
64	Act5C	DRSC25024	1.96	1.89	1.4	active
65	Hpr1	DRSC12296	-2.86	-5.86	-0.4	active
66	POLDIP2	DRSC12194	-2.24	-0.489	0.569	inactive
67	CG6380	DRSC02950	-0.69	-1.44	0.237	inactive
68	vib	DRSC17094	0.686	0.562	-0.372	inactive
69	Ipp	DRSC16718	-1	0.772	0.574	inactive
70	Ipp	DRSC26058	1.77	0.405	1.83	active
71	Scsalpha2	DRSC16003	0.072	0.542	0.466	inactive
72	TFAM	DRSC15552	-7.48	0.613	-0.627	inactive
73	TFAM	DRSC26903	0.3	0.00202	-1.28	inactive
74	CG10081	DRSC05962	-0.384	-1.91	-0.0343	inactive
75	CG10081	DRSC24787	0.712	-0.403	-2.39	inactive
76	Rel	DRSC16819	0.43	0.558	-0.355	inactive
77	Rel	DRSC40716	-0.679	0.0332	-0.103	inactive
78	Tsp97E	DRSC16019	-4.8	-0.726	0.00386	inactive
79	Tsp97E	DRSC28053	-0.479	-0.781	1.02	inactive
80	GEFmeso	DRSC06748	-2.24	0.379	-1.03	inactive
81	GEFmeso	DRSC06940	1.13	0.465	0.849	inactive
82	GEFmeso	DRSC21475	-1.76	-1	-1.54	active
83	CG14628	DRSC18626	0.725	-0.272	0.563	inactive
84	Pc	DRSC24966	0.218	-0.919	-0.766	inactive
85	Hsp27	DRSC11190	-2.46	0.702	-2.63	active
86	Hsp27	DRSC26877	-1.58	-1.1	-2.97	active
87	CtsF	DRSC12056	-0.696	-0.47	-0.569	inactive
88	CtsF	DRSC12195	-1.61	-0.858	-1.73	active
89	CtsF	DRSC12196	0.752	0.855	-0.707	inactive
